Values from PubChem BioAssay AID624099 (ICCB-Longwood, 2012)
Here is a random part of about 21,000 reagents. 497 of them (2.4%) count as active. 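Higher z means weaker E2 silencing; only reporter increases were scored, and knock-downs that hurt cell survival may mask genuine repressor factors.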 Reagent sequences are not shown.

- Assay: 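Host factors E2 relies on to silence an HPV18 LCR reporter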 (primary screen)
- System: human C33A cervical carcinoma cells (HPV-negative) stably expressing BPV1 E2 and an HPV18 LCR luciferase reporter
- Reagent: siRNA pool against human genes, 40 nM
- Time to read-out: 72 h
- Read-out: 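Per-well luciferase luminescence, z-scored on each plate against the plate mean and SD with control wells left out, then averaged across three replicate plates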
- Scale: mean z-score and z-score: higher = stronger reporter signal, weaker E2 silencing
- Rule for the call: 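Hit if mean z-score reaches 2 and two or more of three replicate z-scores also reach 2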

| gene knocked down | PubChem SID | mean z-score | z-score, replicate A | z-score, replicate B | z-score, replicate C | Outcome |
| --- | --- | --- | --- | --- | --- | --- |
| DNAH17 (dynein axonemal heavy chain 17) | SID134322100 | -0.72 | -0.53 | -0.98 | -0.66 | inactive |
| CRAT (carnitine O-acetyltransferase) | SID134314256 | -1 | -1.02 | -0.89 | -1.08 | inactive |
| CRISP2 (cysteine rich secretory protein 2) | SID134323523 | -0.03 | -0.02 | -0.01 | -0.06 | inactive |
| KCNQ1DN (KCNQ1 downstream neighbor) | SID134324480 | 1.27 | 1.22 | 1.1 | 1.51 | inactive |
| TIMM13 (translocase of inner mitochondrial membrane 13) | SID134314270 | 0.27 | 0.3 | 0.49 | 0.01 | inactive |
| SASH3 (SAM and SH3 domain containing 3) | SID134324812 | 0.03 | 0.03 | 0.06 | 0.01 | inactive |
| DRC10 (dynein regulatory complex subunit 10) | SID134319648 | -1 | -0.95 | -0.88 | -1.18 | inactive |
| BTN1A1 (butyrophilin subfamily 1 member A1) | SID134315926 | 2.13 | 2.11 | 1.99 | 2.29 | active |
| LOC388573 (retired record) | SID134327089 | -0.17 | -0.11 | -0.15 | -0.24 | inactive |
| VENTX (VENT homeobox) | SID134316795 | 0.51 | 0.59 | 0.54 | 0.4 | inactive |
| ZNF22 (zinc finger protein 22) | SID134317027 | -0.81 | -0.38 | -1.2 | -0.85 | inactive |
| KPNA5 (karyopherin subunit alpha 5) | SID134315655 | 0.49 | 0.3 | 0.42 | 0.74 | inactive |
| CASP6 (caspase 6) | SID134310443 | -0.38 | -0.83 | -0.56 | 0.25 | inactive |
| C1QTNF8 (C1q and TNF related 8) | SID134329572 | -0.77 | -1.05 | -0.45 | -0.8 | inactive |
| LOC285321 (retired record) | SID134325702 | 0.11 | 0.17 | 0.27 | -0.09 | inactive |
| ALG5 (ALG5 dolichyl-phosphate beta-glucosyltransferase) | SID134317619 | -0.44 | -0.32 | -0.46 | -0.53 | inactive |
| PLXNA2 (plexin A2) | SID134320714 | 0.58 | 0.71 | 0.49 | 0.54 | inactive |
| PLXNA2 (plexin A2) | SID134325092 | 1.37 | 1.17 | 1.71 | 1.23 | inactive |
| BMAL2 (basic helix-loop-helix ARNT like 2) | SID134314047 | 0.06 | -0.05 | 0.13 | 0.09 | inactive |
| NUDT18 (nudix hydrolase 18) | SID134318614 | -0.49 | -0.01 | -0.41 | -1.05 | inactive |
| LINC00944 (long independently transcribed non-coding RNA 944) | SID134328395 | -0.49 | -0.41 | -0.34 | -0.72 | inactive |
| LOC197317 (retired record) | SID134325448 | 0.48 | 0.62 | 0.6 | 0.23 | inactive |
| KRT3 (keratin 3) | SID134317152 | -0.03 | -0.08 | -0.09 | 0.08 | inactive |
| MRRF (mitochondrial ribosome recycling factor) | SID134320533 | -0.85 | -0.89 | -1 | -0.66 | inactive |
| LOC389153 (retired record) | SID134327372 | 0.09 | -0.43 | 0.18 | 0.53 | inactive |
| BCLAF3 (BCLAF1 and THRAP3 family member 3) | SID134326213 | -0.06 | -0.19 | -0.06 | 0.09 | inactive |
| IL19 (interleukin 19) | SID134312886 | -0.4 | -0.64 | -0.32 | -0.22 | inactive |
| DCTN3 (dynactin subunit 3) | SID134316641 | -0.59 | -0.73 | -0.45 | -0.59 | inactive |
| RPLP2 (ribosomal protein lateral stalk subunit P2) | SID134310390 | -2.54 | -2.55 | -2.59 | -2.5 | inactive |
| ERP44 (endoplasmic reticulum protein 44) | SID134326460 | -0.52 | -0.43 | -0.67 | -0.46 | inactive |
| MPHOSPH8 (M-phase phosphoprotein 8) | SID134325137 | 1.61 | 1.49 | 1.59 | 1.74 | inactive |
| IL27 (interleukin 27) | SID134312921 | 0.68 | 0.14 | 1.23 | 0.66 | inactive |
| ZNF341 (zinc finger protein 341) | SID134319312 | -0.3 | -0.86 | -0.22 | 0.19 | inactive |
| LINS1 (lines homolog 1) | SID134322938 | -0.19 | -0.11 | -0.05 | -0.41 | inactive |
| CD44 (CD44 molecule (IN blood group)) | SID134314655 | -0.2 | -0.29 | -0.18 | -0.12 | inactive |
| TAF6 (TATA-box binding protein associated factor 6) | SID134316439 | -1.05 | -1.07 | -1 | -1.07 | inactive |
| KRI1 (KRI1 homolog) | SID134317120 | 0.42 | 0.42 | 0.55 | 0.29 | inactive |
| FXYD4 (FXYD domain containing ion transport regulator 4) | SID134321355 | -0.09 | -0.07 | 0.18 | -0.37 | inactive |
| MYL7 (myosin light chain 7) | SID134325054 | -0.57 | -0.43 | -0.69 | -0.6 | inactive |
| NSUN4 (NOP2/Sun RNA methyltransferase 4) | SID134326878 | 1.63 | 1.54 | 1.35 | 2.01 | inactive |
| CORO1A (coronin 1A) | SID134317024 | 0.68 | 0.77 | 0.78 | 0.49 | inactive |
| OSBPL3 (oxysterol binding protein like 3) | SID134314134 | -1.15 | -1.46 | -0.94 | -1.06 | inactive |
| HAO2 (hydroxyacid oxidase 2) | SID134314588 | 0.28 | 0.12 | 0.55 | 0.19 | inactive |
| STMN3 (stathmin 3) | SID134317818 | -0.37 | -0.21 | -0.45 | -0.43 | inactive |
| CDV3 (CDV3 homolog) | SID134324582 | 1.17 | 1 | 1.04 | 1.46 | inactive |
| LOC100288208 | SID134328455 | -0.39 | -0.48 | -0.35 | -0.36 | inactive |
| CEP83 (centrosomal protein 83) | SID134324652 | 0.9 | 0.63 | 1.08 | 1 | inactive |
| ABCA9 (ATP binding cassette subfamily A member 9) | SID134313401 | -0.85 | -0.62 | -1.01 | -0.93 | inactive |
| LOC440464 (retired record) | SID134328812 | -0.7 | -0.72 | -0.82 | -0.55 | inactive |
| ZNF583 (zinc finger protein 583) | SID134320205 | 1.06 | 1 | 1.35 | 0.83 | inactive |
| AWAT2 (acyl-CoA wax alcohol acyltransferase 2) | SID134326788 | 0.16 | 1.01 | -0.32 | -0.21 | inactive |
| OR2T6 (olfactory receptor family 2 subfamily T member 6) | SID134329921 | -1 | -1.1 | -0.92 | -0.98 | inactive |
| GPKOW (G-patch domain and KOW motifs) | SID134319182 | 2.23 | 2.01 | 2.25 | 2.41 | active |
| CASC3 (CASC3 exon junction complex subunit) | SID134315069 | -0.82 | -0.81 | -0.73 | -0.92 | inactive |
| ZNF436 (zinc finger protein 436) | SID134318753 | -0.12 | 0.18 | -0.57 | 0.03 | inactive |
| SLC31A1 | SID134312577 | 0.56 | 0.21 | 0.87 | 0.59 | inactive |
| TRAF5 (TNF receptor associated factor 5) | SID134311888 | 0.83 | 0.73 | 1.07 | 0.68 | inactive |
| CENPF (centromere protein F) | SID134309817 | -0.76 | -0.83 | -0.5 | -0.95 | inactive |
| ALDOC (aldolase, fructose-bisphosphate C) | SID134316958 | -0.15 | -0.24 | -0.1 | -0.1 | inactive |
| LINC00547 (long independently transcribed non-coding RNA 547) | SID134328438 | 0.86 | 0.79 | 0.7 | 1.09 | inactive |
| PROKR2 (prokineticin receptor 2) | SID134311034 | -0.8 | -1.01 | -0.94 | -0.46 | inactive |
| R3HDM4 (R3H domain containing 4) | SID134320537 | 0.8 | 0.47 | 0.94 | 0.98 | inactive |
| MAU2 | SID134329461 | 0.46 | 0.2 | 0.54 | 0.62 | inactive |
| LOC652276 | SID134320199 | 0.07 | 0.08 | 0.2 | -0.06 | inactive |
| NKAP (NFKB activating protein) | SID134318518 | -0.57 | -0.6 | -0.6 | -0.53 | inactive |
| LINC01904 (long independently transcribed non-coding RNA 1904) | SID134328840 | -1.55 | -1.52 | -1.45 | -1.7 | inactive |
| ZFYVE28 (zinc finger FYVE-type containing 28) | SID134325962 | -0.01 | -0.51 | 0.53 | -0.05 | inactive |
| FAM177B (family with sequence similarity 177 member B) | SID134329626 | -0.17 | -0.48 | -0.54 | 0.51 | inactive |
| UNG (uracil DNA glycosylase) | SID134316113 | 0.95 | 0.73 | 1.23 | 0.89 | inactive |
| LOC342669 (retired record) | SID134325597 | -0.16 | -0.39 | 0.03 | -0.12 | inactive |
| SARAF (store-operated calcium entry associated regulatory factor) | SID134319328 | 0.67 | 0.48 | 0.91 | 0.61 | inactive |
| TNFRSF9 (TNF receptor superfamily member 9) | SID134313031 | -1.78 | -1.81 | -1.85 | -1.69 | inactive |
| MAP1A (microtubule associated protein 1A) | SID134317706 | -1.28 | -1.44 | -1.73 | -0.68 | inactive |
